A mixed list of measured activities; the numbers were collected in NIAID ChemDB.

Shared fields: growth or infection tests; species: HIV-1; cell line: MT-2; endpoint: fold resistance

Rows are shuffled and stem from different studies.

compound	strain or isolate	mutations	method	conditions	value
CC(C)C[C@@H]1[C@H](O)[C@@H](O)[C@@H](CC(C)C)N(Cc2cccc(C(=O)Nc3nc4ccccc4[nH]3)c2)C(=O)N1Cc1cccc(C(=O)Nc2nc3ccccc3[nH]2)c1	RF	PR-I84V		3 d	0.339
Cc1cn([C@H]2C[C@H](N=[N+]=[N-])[C@@H](CO)O2)c(=O)[nH]c1=O	UC781-resistant (RT K103N Y181C) A17	RT-K103N Y181C	p24		0.8
Nc1ccn([C@H]2CC[C@@H](CO)O2)c(=O)n1	R82150 (RT-L100I)	RT-L100I	cytopathic effect		0.786
Nc1nc(=O)n([C@@H]2CS[C@H](CO)O2)cc1F	Site-directed mutant	RT-K65R M184V	cytopathic effect / XTT		>210
Nc1nc2c(ncn2[C@H]2CO[C@@H](CO)O2)c(=O)[nH]1	HXB2D (RT D67N K70R T215Y)	RT-D67N K70R T215Y			1.42
Nc1nc(=O)n([C@H]2CS[C@@H](CO)O2)cc1F	HXB2	T66K	recombinant virus assay / single cycle	pseudotyped	1
O=C(O)P(=O)(O)O	HXB2	TAM2 (D67N K70R T215F K219Q)			0.6
O=c1[nH]cnc2c1ncn2[C@H]1CC[C@@H](CO)O1	NL4-3	INTG-G140S			0.3
Nc1ncnc2c1ncn2[C@@H]1O[C@H](CO)C[C@@H]1F	L74V(RT-L74V)	RT-L74V	p24		2.6
Nc1nc2c(ncn2[C@H]2CO[C@@H](CO)O2)c(=O)[nH]1		RT-L74V	cytopathic effect / XTT		3.75
Cc1cn([C@H]2C[C@H](N=[N+]=[N-])[C@@H](CO)O2)c(=O)[nH]c1=O	LAI	RT-D67N K70R T215Y K219Q K65R	p24		1.3
Nc1cccc(CN2C(=O)N(Cc3cccc(N)c3)[C@H](Cc3ccccc3)[C@H](O)[C@@H](O)[C@H]2Cc2ccccc2)c1	THAI (PR-D60E I84V)	PR-D60E I84V	virus yield		10
COc1c(O)c(I)c2c(c1OC)-c1c(c(I)c(O)c(OC)c1OC)C[C@H](C)[C@H](C)C2	N119 nevirapine-resistant (RT Y181C)	RT-Y181C	cytopathic effect / MTT		>76.9
Cc1ccnc2c1NC(=O)c1cccnc1N2C1CC1	A17-(RT-K103N Y181C) NNRTI-resistant	RT-K103N Y181C	cytopathic effect		450
Cc1cn([C@H]2C[C@H](N=[N+]=[N-])[C@@H](CO)O2)c(=O)[nH]c1=O	HxB2-MT 65 (RT-K65R	RT-K65R	p24 / ELISA		1
Nc1nc(NC2CC2)c2ncn([C@H]3C=C[C@@H](CO)C3)c2n1		RT-T69G	p24		7.2
O=C(O)P(=O)(O)O	R82150 (RT-L100I)	RT-L100I	cytopathic effect		1.14
Cc1cn([C@H]2C[C@H](N=[N+]=[N-])[C@@H](CO)O2)c(=O)[nH]c1=O	N119 nevirapine-resistant (RT Y181C)	RT-Y181C	cytopathic effect / MTT		2.4
[N-]=[N+]=N[C@H]1C[C@H](n2ccc(N)nc2=O)O[C@@H]1CO	AZT-resistant (RT D67N K70R T215F K219Q)	RT-D67N K70N T215F K219Q	p24		10.7
Cc1cn([C@H]2C[C@H](N=[N+]=[N-])[C@@H](CO)O2)c(=O)[nH]c1=O	L214F(RT-L214F)	RT-L214F	p24		0.7
Nc1nc2c(ncn2[C@H]2CO[C@@H](CO)O2)c(=O)[nH]1		RT-K65R			5.06
Cc1cn([C@H]2C=C[C@@H](CO)O2)c(=O)[nH]c1=O	R82150 (RT-L100I)	RT-L100I	cytopathic effect		0.818
Cc1ccnc2c1NC(=O)c1cccnc1N2C1CC1	N119 nevirapine-resistant (RT Y181C)	RT-Y181C	cytopathic effect / MTT		>588
O=c1[nH]cnc2c1ncn2[C@H]1CC[C@@H](CO)O1		RT-T69G	p24		8.6
Cc1cn([C@H]2C[C@H](N=[N+]=[N-])[C@@H](CO)O2)c(=O)[nH]c1=O		RT-Q151M	cytopathic effect / MTT		4.8
O=c1[nH]cnc2c1ncn2[C@H]1CC[C@@H](CO)O1	HXB2-MT 65+68 (RT K65R S68G)	RT-K65R S68G	p24 / ELISA		4.8
Nc1cccc(CN2C(=O)N(Cc3ccc4[nH]nc(-c5cccs5)c4c3)[C@H](Cc3ccccc3)[C@H](O)[C@@H](O)[C@H]2Cc2ccccc2)c1	Ritonavir-resistant (PR M46I L63P A71V V82F I84V)	PR-M46I L63P A71V V82F I84V			>161
O=c1[nH]cnc2c1ncn2[C@H]1CC[C@@H](CO)O1	NL4-3	RT-A360T	p24		0.71
CCOP(=O)(COc1ccc(C[C@H](NC(=O)O[C@H]2CO[C@H]3OCC[C@H]32)[C@H](O)CN(CC(C)C)S(=O)(=O)c2ccc(OC)cc2)cc1)OCC	IIIB	K112M K113E V128I	p24 / ELISA		1.3
Nc1nc2c(ncn2[C@H]2CO[C@@H](CO)O2)c(=O)[nH]1	LAI	RT-K65R	p24		8.7
CC(C)=CCN1Cc2cccc3[nH]c(=S)n(c23)C[C@@H]1C	R82150 (RT-L100I)	RT-L100I	cytopathic effect		>150
Nc1ccn([C@@H]2CO[C@H](CO)S2)c(=O)n1	HXB2D (RT-M184V)	RT-M184V	RT activity		>33.33
Nc1nc(NC2CC2)c2ncn([C@H]3C=C[C@@H](CO)C3)c2n1	HXB2D (RT D67N K70R T215Y)	RT-D67N K70R T215Y			2.33
CC(C)(C)NC(=O)[C@@H]1C[C@@H]2CCCC[C@@H]2CN1C[C@@H](O)[C@H](Cc1ccccc1)NC(=O)[C@H](CC(N)=O)NC(=O)c1ccc2ccccc2n1	RF	PR-G48V I54V A71T V82A			17.6
CC(C)(C)OC(=O)N[C@@H](Cc1ccccc1)[C@H](O)CNC[C@@H](O)[C@H](Cc1ccc(OCC(=O)N2CCOCC2)cc1)NC(=O)OC(C)(C)C	NL4-3	PR-V82A	p24		4
CC(C)=CCN1Cc2cccc3[nH]c(=S)n(c23)C[C@@H]1C	HX(RT-S156A)	RT-S156A	RT activity		0.692
Nc1ccn([C@H]2CC[C@@H](CO)O2)c(=O)n1	NL4-3	INTG-G140S			0.25
Cc1cn([C@H]2C=C[C@@H](CO)O2)c(=O)[nH]c1=O		RT-Q151M V75I	cytopathic effect / MTT		3.2
Cc1ccc(S(=O)(=O)N(CC(C)C)C[C@@H](O)[C@H](Cc2ccccc2)NC(=O)O[C@H]2CO[C@H]3OCC[C@H]32)cc1	IIIB	I401T R409K D437N	p24 / ELISA		4.3
Nc1ncnc2c1ncn2CCOCP(=O)(O)O	T215Y(RT-T215Y)	RT-T215Y	p24		1.8
Nc1nc(N)c2ncn([C@H]3CO[C@@H](CO)O3)c2n1		RT-F116Y Q151M T215Y	cytopathic effect / XTT		8
C[C@H](Cn1cnc2c(N)ncnc21)OCP(=O)(O)O	G910-6 AZT-resistant (RT D67N K70R T215F K219Q)	RT-D67N K70R T215F K219Q	p24		0.282

An empty or dashed field is not shown. Fold resistance has wild type as its base.